PubChem BioAssay AID624099, ICCB-Longwood | 2012
The whole screen tested about 21,000 reagents; shown is a part drawn at random. 497 of them (2.4%) were called active. 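Higher z means weaker E2 silencing; only reporter increases were scored, and knock-downs that hurt cell survival may mask genuine repressor factors.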 Unmarked entries are inactive. Reagents against one gene are numbered here. Reagent sequences are not shown.

Screen: 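Host factors E2 relies on to silence an HPV18 LCR reporter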 (primary screen)
Cell system: human C33A cervical carcinoma cells (HPV-negative) stably expressing BPV1 E2 and an HPV18 LCR luciferase reporter
Knock-down reagent: siRNA pool against human genes, 40 nM
Time to read-out: 72 h
Measurement: 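HPV18 LCR reporter light per well, converted to plate-wise z-scores that exclude control wells, and averaged over triplicate plates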
Reading the numbers: mean z-score and z-score: higher = stronger reporter signal, weaker E2 silencing
Rule for the call: 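Mean z ≥ 2 together with z ≥ 2 in two or more of the three replicates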

SLC28A2 — mean z-score = 1.93; z-score, replicate A = 1.92; z-score, replicate B = 1.8; z-score, replicate C = 2.06
FAM171A2 (family with sequence similarity 171 member A2) — mean z-score = 2.32 (active); z-score, replicate A = 2.48; z-score, replicate B = 2.34; z-score, replicate C = 2.12
BRF2 (BRF2 general transcription factor IIIB subunit) — mean z-score = 0.39; z-score, replicate A = 0.72; z-score, replicate B = 0.12; z-score, replicate C = 0.34
CHRDL2 (chordin like 2) — mean z-score = 0.66; z-score, replicate A = 0.66; z-score, replicate B = 0.7; z-score, replicate C = 0.63
TFF3 (trefoil factor 3) — mean z-score = 1.52; z-score, replicate A = 1.44; z-score, replicate B = 1.38; z-score, replicate C = 1.74
BTC (betacellulin) — mean z-score = -0.08; z-score, replicate A = -0.09; z-score, replicate B = 0.04; z-score, replicate C = -0.18
TUBB1 (tubulin beta 1 class VI) — mean z-score = -0.57; z-score, replicate A = -0.66; z-score, replicate B = -0.61; z-score, replicate C = -0.45
CRYGC (crystallin gamma C) — mean z-score = -0.91; z-score, replicate A = -0.77; z-score, replicate B = -1.02; z-score, replicate C = -0.94
OXSM (3-oxoacyl-ACP synthase, mitochondrial) — mean z-score = 1.24; z-score, replicate A = 1.37; z-score, replicate B = 1.31; z-score, replicate C = 1.02
MED9 (mediator complex subunit 9) — mean z-score = 0.33; z-score, replicate A = 0.62; z-score, replicate B = 0.47; z-score, replicate C = -0.1
TMEM59 (transmembrane protein 59) — mean z-score = 0.4; z-score, replicate A = 0.33; z-score, replicate B = 0.6; z-score, replicate C = 0.27
RDX (radixin) — mean z-score = -0.94; z-score, replicate A = -1.07; z-score, replicate B = -1.33; z-score, replicate C = -0.43
OTOS (otospiralin) — mean z-score = -0.04; z-score, replicate A = -0.07; z-score, replicate B = 0.01; z-score, replicate C = -0.08
STMN1 (stathmin 1) #1 — mean z-score = -0.33; z-score, replicate A = -0.43; z-score, replicate B = -0.2; z-score, replicate C = -0.38
STMN1 (stathmin 1) #2 — mean z-score = -0.25; z-score, replicate A = -0.15; z-score, replicate B = -0.34; z-score, replicate C = -0.25
NHEJ1 (non-homologous end joining factor 1) — mean z-score = -0.66; z-score, replicate A = -0.67; z-score, replicate B = -0.84; z-score, replicate C = -0.47
LINC02370 (long independently transcribed non-coding RNA 2370) — mean z-score = 0.89; z-score, replicate A = 0.12; z-score, replicate B = 1.12; z-score, replicate C = 1.44

3 successive records already listed, quoted:
CRYGC (crystallin gamma C) — mean z-score = -0.91; z-score, replicate A = -0.77; z-score, replicate B = -1.02; z-score, replicate C = -0.94
OXSM (3-oxoacyl-ACP synthase, mitochondrial) — mean z-score = 1.24; z-score, replicate A = 1.37; z-score, replicate B = 1.31; z-score, replicate C = 1.02
MED9 (mediator complex subunit 9) — mean z-score = 0.33; z-score, replicate A = 0.62; z-score, replicate B = 0.47; z-score, replicate C = -0.1

Next entries follow:
PPP1CB (protein phosphatase 1 catalytic subunit beta) — mean z-score = -0.08; z-score, replicate A = -0.24; z-score, replicate B = 0; z-score, replicate C = 0
CERS3 (ceramide synthase 3) — mean z-score = 0.92; z-score, replicate A = 1.07; z-score, replicate B = 1; z-score, replicate C = 0.7
VWA5B1 (von Willebrand factor A domain containing 5B1) — mean z-score = 0.04; z-score, replicate A = 0.17; z-score, replicate B = -0.25; z-score, replicate C = 0.21
DDX11L2 (DEAD/H-box helicase 11 like 2 (pseudogene)) — mean z-score = 0.74; z-score, replicate A = 0.57; z-score, replicate B = 0.97; z-score, replicate C = 0.68
MMRN2 (multimerin 2) — mean z-score = -0.73; z-score, replicate A = -0.78; z-score, replicate B = -0.72; z-score, replicate C = -0.67
DLX1 (distal-less homeobox 1) — mean z-score = 0.8; z-score, replicate A = 0.65; z-score, replicate B = 0.63; z-score, replicate C = 1.12
NR5A2 (nuclear receptor subfamily 5 group A member 2) — mean z-score = -0.33; z-score, replicate A = -0.03; z-score, replicate B = -0.48; z-score, replicate C = -0.47
ALG5 (ALG5 dolichyl-phosphate beta-glucosyltransferase) — mean z-score = -0.44; z-score, replicate A = -0.32; z-score, replicate B = -0.46; z-score, replicate C = -0.53
C1QTNF7 (C1q and TNF related 7) — mean z-score = 0.46; z-score, replicate A = 0.38; z-score, replicate B = 0.37; z-score, replicate C = 0.61
PIAS4 (protein inhibitor of activated STAT 4) — mean z-score = -0.25; z-score, replicate A = -0.2; z-score, replicate B = -0.11; z-score, replicate C = -0.43
